Pooled drug test results. Numbers come from NIAID ChemDB, via PubChem.

All rows: tests on isolated targets; organism: HIV-1; target: Reverse transcriptase; read-out: fold resistance

Fold resistance: result on the changed form divided by that on wild type.

SMILES | strain | mutations | read by | value
NC(=O)c1[nH]c2ccc(Cl)cc2c1S(=O)(=O)c1ccccc1 |  | RT-Y181I | nucleotide incorporation / radiometric | 140
Cc1occc1C(=S)Nc1ccc(Cl)c(C(=O)OCC2CC2)c1 |  | RT-K103N | nucleotide incorporation / radiometric | >8.33
CCN1c2ncc(CCOc3ccc(C(=O)N(C)c4ccc(C(=O)O)cc4)cc3C)cc2C(=O)N(C)c2cccnc21 | IIIB | RT-K103N Y181C | nucleotide incorporation / radiometric | >1
Cc1occc1C(=S)Nc1ccc(Cl)c(/C=N/OC(C)(C)C)c1 |  | RT-P236L | nucleotide incorporation / radiometric | 1.15
CCN1c2ncc(CCOc3ccc(C(=O)O)c4c3CCCC4)cc2C(=O)N(C)c2ccc(C)nc21 |  | RT-K103N Y181C | nucleotide incorporation / radiometric | 1–10
CC(C)=CCOc1cc(NC(=S)c2ccoc2C)ccc1Cl |  | RT-M184V |  | 1.31
Cc1cc(S(N)(=O)=O)ccc1NC(=O)COc1ccccc1C(=O)c1cc(Cl)cc(C#N)c1 | NNRTI-resistant | RT-Y188L | nucleotide incorporation / radiometric | 8.3
CCN1c2ncc(CCOc3ccc(C(=O)O)c4c3CCCC4)cc2C(=O)N(C)c2ccc(F)nc21 |  | RT-K103N Y181C | nucleotide incorporation / radiometric | 1–10
CCN1c2ncc(CCOc3ccc(-c4cnccc4C)cc3C)cc2C(=O)N(C)c2cccnc21 | IIIB | RT-K103N Y181C | nucleotide incorporation / radiometric | 1
CCN1c2ncc(CCOc3ccc(S(=O)(=O)NCC(=O)O)c4ccccc34)cc2C(=O)N(C)c2cccnc21 |  | RT-Y188L | nucleotide incorporation / radiometric | 1–10
CCN1c2ncc(CCOc3ccc(-c4cc(F)c(O)c(F)c4)cc3C)cc2C(=O)N(C)c2cccnc21 | IIIB | RT-K103N Y181C | nucleotide incorporation / radiometric | >1
CC(C)=CCOc1cc(NC(=S)c2ccsc2C)ccc1Cl |  | RT-L100I |  | 5.5
CCN1c2ncc(CCOc3ccc(/C=C(\C)C(=O)O)c4ccccc34)cc2C(=O)Nc2c(C)ccnc21 |  | RT-V106A | nucleotide incorporation / radiometric | 1–10
CCN1c2ncc(CCOc3ccc(-c4cscn4)cc3)cc2C(=O)N(C)c2cccnc21 | IIIB | RT-K103N Y181C | nucleotide incorporation / radiometric | >2
Cc1c(Cc2ccccc2)nc(SCCCCO)[nH]c1=O |  | RT-V106A |  | 1.37
CCc1cc(NCc2nc3c(C)ccc(C)c3o2)c(=O)[nH]c1C |  | RT-K103N Y181C Y188C | nucleotide incorporation | >6000
O=c1cc(Cc2ccccc2)nc(NCCCCO)[nH]1 |  | RT-Y188L |  | >2.44
CCN1c2ncc(CCOc3ccc(C(=O)O)c4c3CCN(C(=O)OC)C4)cc2C(=O)N(C)c2cccnc21 |  | RT-Y188L | nucleotide incorporation / radiometric | 1–10
Cc1c(Cc2ccccc2)nc(NCCCCN)[nH]c1=O |  | RT-Y188L |  | >10.3
CCN1c2ncc(CCOc3ccc(C(=O)O)c4ccccc34)cc2C(=O)Nc2c(C)ccnc21 |  | RT-V106A | nucleotide incorporation / radiometric | 1–10
Nc1nc2c(ncn2[C@H]2CC[C@@H](COP(=O)(O)OP(=O)(O)OP(=O)(O)O)O2)c(=O)[nH]1 |  | RT-Y188L | nucleotide incorporation | 0.5
Cc1cc(C)cc(S(=O)(=O)c2c(C(N)=O)[nH]c3ccc(Cl)cc23)c1 |  | RT-V179D | nucleotide incorporation / radiometric | 16.6
CCN1c2ncc(CCOc3ccc(C(=O)O)c4c3CCC4)cc2C(=O)N(C)c2cccnc21 |  | RT-V106A | nucleotide incorporation / radiometric | 1–10
CCN1c2ncc(CCOc3ccc(-c4csc(C(=O)O)c4)cc3C)cc2C(=O)N(C)c2cccnc21 | IIIB | RT-K103N Y181C | nucleotide incorporation / radiometric | 1
CCN1c2ncc(CCOc3ccc(C(=O)O)c4c3CCN(S(C)(=O)=O)C4)cc2C(=O)N(C)c2cccnc21 |  | RT-K103N Y181C | nucleotide incorporation / radiometric | 1
CCN1c2ncc(CCOc3ccc(-c4cccc(C(=O)O)c4)cc3)cc2C(=O)N(C)c2cccnc21 | IIIB | RT-K103N Y181C | nucleotide incorporation / radiometric | >2
CCN1c2ncc(CCOc3ccc(CC(=O)O)c4c3CCCC4)cc2C(=O)N(C)c2ccc(Cl)nc21 |  | RT-K103N Y181C | nucleotide incorporation / radiometric | 1–10
C=CCO/N=C/c1cc(NC(=S)c2ccoc2C)ccc1Cl |  | RT-Y181C | nucleotide incorporation / radiometric | >8.33
CCN1c2ncc(CCOc3ccc(-c4ccc(CC(=O)O)cc4[N+](=O)[O-])cc3C)cc2C(=O)N(C)c2cccnc21 | IIIB | RT-K103N Y181C | nucleotide incorporation / radiometric | >1

Again, the opening 4 rows:

SMILES,strain,mutations,read by,value
NC(=O)c1[nH]c2ccc(Cl)cc2c1S(=O)(=O)c1ccccc1,,RT-Y181I,nucleotide incorporation / radiometric,140
Cc1occc1C(=S)Nc1ccc(Cl)c(C(=O)OCC2CC2)c1,,RT-K103N,nucleotide incorporation / radiometric,>8.33
CCN1c2ncc(CCOc3ccc(C(=O)N(C)c4ccc(C(=O)O)cc4)cc3C)cc2C(=O)N(C)c2cccnc21,IIIB,RT-K103N Y181C,nucleotide incorporation / radiometric,>1
Cc1occc1C(=S)Nc1ccc(Cl)c(/C=N/OC(C)(C)C)c1,,RT-P236L,nucleotide incorporation / radiometric,1.15

Conditions beyond the fields shown may differ between rows. Two numbers with a dash give a range or band. An empty or dashed field is not shown.